From PMC6744242
Only a part of the results on these compounds is given; other tests are left out.

Biological target: N9 NA (rgSH2; NA of A/Shanghai/2/2013) (Influenza A virus (A/Shanghai/02/2013(H7N9)), UniProt R4NFR6)
Settings: preliminary experiment, 25 C; zanamivir used at 10 uM in later runs

## CC(=O)N[C@H]1[C@H]([C@H](O)[C@H](O)CO)OC(C(=O)O)=C[C@@H]1N=C(N)N
  sensitive to inhibitor, no constant: NL12 (N3), SH2 (N9), and rgGD17 (N9), were sensitive to NAi zanamivir hydrate
